Results deposited as PubChem BioAssay AID624099 (ICCB-Longwood, 2012)
Purpose: 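Knock-downs relieving repression by E2 of an HPV18 LCR luciferase reporter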 (primary screen). System: human C33A cervical carcinoma cells (HPV-negative) stably expressing BPV1 E2 and an HPV18 LCR luciferase reporter. Reagents: siRNA pool against human genes, 40 nM. Duration: 72 h. Read-out: 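Per-well luciferase luminescence, z-scored on each plate against the plate mean and SD with control wells left out, then averaged across three replicate plates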. Reading the numbers: mean z-score and z-score: higher = stronger reporter signal, weaker E2 silencing. Rule for the call: 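Hit if mean z-score reaches 2 and two or more of three replicate z-scores also reach 2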.
This is a random part of about 21,000 reagents. Over the whole deposit, 497 (2.4%) were called active. 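Higher z means weaker E2 silencing; only reporter increases were scored, and knock-downs that hurt cell survival may mask genuine repressor factors.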 The numbers tell different reagents against one gene apart. No sequences are given here.

gene knocked down | pool no. | mean z-score | z-score, replicate A | z-score, replicate B | z-score, replicate C | outcome
TCOF1 | 1 | 0.7 | 0.78 | 0.69 | 0.64 | inactive
DRAP1 | 1 | 0.89 | 0.97 | 0.9 | 0.79 | inactive
KCNE4 | 1 | -0.46 | -0.66 | -0.44 | -0.28 | inactive
ZMAT3 | 1 | -0.48 | -0.81 | -0.24 | -0.37 | inactive
DYNC1LI2 | 1 | 0.41 | 0.35 | 0.55 | 0.34 | inactive
DPY19L3 | 1 | 0.35 | 0.19 | 0.68 | 0.2 | inactive
DPY19L3 | 2 | 0.97 | 0.79 | 0.92 | 1.21 | inactive
MAGEB18 | 1 | 0.44 | -0.07 | 0.6 | 0.8 | inactive
SPATA20 | 1 | -0.24 | -0.19 | 0.01 | -0.55 | inactive
GOT2 | 1 | -0.19 | 0.05 | -0.34 | -0.29 | inactive
AFF3 | 1 | 0.54 | 0.52 | 0.49 | 0.61 | inactive
C8orf34 | 1 | 0.09 | -0.06 | 0.26 | 0.07 | inactive
CD177 | 1 | 0.63 | 0.93 | 0.46 | 0.52 | inactive
ERAP2 | 1 | 4.3 | 4.19 | 4.26 | 4.44 | active
MRNIP | 1 | 0.67 | 0.09 | 0.98 | 0.94 | inactive
HAS1 | 1 | 0.54 | 0.43 | 0.4 | 0.8 | inactive
TMEM95 | 1 | 1.55 | 1.82 | 1.26 | 1.58 | inactive
RPLP1P3 | 1 | -0.13 | -0.21 | 0.2 | -0.37 | inactive
ENTPD4 | 1 | -0.93 | -0.97 | -1.02 | -0.8 | inactive
ILKAP | 1 | 0.51 | 0.38 | 0.21 | 0.93 | inactive
ADAD1 | 1 | -0.23 | -0.18 | -0.26 | -0.25 | inactive

Sorted by “z-score, replicate C” (ascending): some entries from above
gene knocked down | pool no. | mean z-score | z-score, replicate A | z-score, replicate B | z-score, replicate C | outcome
ZMAT3 | 1 | -0.48 | -0.81 | -0.24 | -0.37 | inactive
KCNE4 | 1 | -0.46 | -0.66 | -0.44 | -0.28 | inactive
DPY19L3 | 1 | 0.35 | 0.19 | 0.68 | 0.2 | inactive
DYNC1LI2 | 1 | 0.41 | 0.35 | 0.55 | 0.34 | inactive
DRAP1 | 1 | 0.89 | 0.97 | 0.9 | 0.79 | inactive

Further reagents follow.
gene knocked down | pool no. | mean z-score | z-score, replicate A | z-score, replicate B | z-score, replicate C | outcome
REG1A | 1 | 0.38 | 0.27 | 0.54 | 0.32 | inactive
IGFBPL1 | 1 | 0.34 | 0.48 | -0.23 | 0.78 | inactive
WIZ | 1 | -0.5 | -0.72 | -0.63 | -0.14 | inactive
TSPEAR | 1 | 0.44 | 0.39 | 0.56 | 0.37 | inactive
CLEC12B | 1 | 0.33 | 0.31 | 0.44 | 0.22 | inactive
DNER | 1 | 0 | -0.09 | -0.25 | 0.33 | inactive
PRSS50 | 1 | -0.34 | -0.11 | -0.07 | -0.83 | inactive
LINC00868 | 1 | 1.31 | 0.8 | 1.71 | 1.42 | inactive
ADTRP | 1 | -0.52 | -0.35 | -0.3 | -0.9 | inactive
CAP2 | 1 | 0.39 | 0.51 | 0.45 | 0.23 | inactive
ZER1 | 1 | 0.04 | 0.03 | -0.09 | 0.18 | inactive
SLC35B1 | 1 | -0.06 | -0.01 | -0.07 | -0.1 | inactive
BLVRB | 1 | 0.22 | 0.2 | 0.24 | 0.23 | inactive
LNX2 | 1 | 0.89 | 0.77 | 1.04 | 0.86 | inactive
CWF19L2 | 1 | 0.54 | 0.76 | 0.73 | 0.14 | inactive
SYT3 | 1 | 0.01 | -0.15 | 0.31 | -0.12 | inactive
SERINC5 | 1 | 0.23 | 0.28 | 0.25 | 0.17 | inactive
DENND1B | 1 | -0.09 | -0.29 | -0.12 | 0.14 | inactive
DENND1B | 2 | -1.63 | -1.63 | -1.5 | -1.75 | inactive
DMBT1 | 1 | 1.5 | 1.48 | 1.43 | 1.59 | inactive
LOC389185 (retired record) | 1 | -0.35 | -0.1 | -0.9 | -0.05 | inactive
REXO6P | 1 | 1.71 | 2.28 | 1.6 | 1.26 | inactive
OR2L3 | 1 | -0.49 | -0.52 | -0.37 | -0.58 | inactive
GIP | 1 | 0.07 | -0.02 | 0.04 | 0.18 | inactive
RCAN1 | 1 | 0.86 | 0.8 | 0.97 | 0.82 | inactive
HNRNPA0 | 1 | -1.43 | -1.5 | -1.41 | -1.39 | inactive
OR1B1 | 1 | -0.28 | -0.61 | -0.44 | 0.22 | inactive
ANO1 | 1 | 0.73 | 0.6 | 0.85 | 0.73 | inactive
GABRA2 | 1 | -0.1 | -0.25 | -0.06 | 0.02 | inactive
OR5H2 | 1 | -0.63 | -0.98 | -0.34 | -0.58 | inactive
F11R | 1 | -0.13 | -0.06 | -0.05 | -0.27 | inactive
NCAPD3 | 1 | -0.24 | -0.81 | -0.13 | 0.22 | inactive
YPLR6490 (retired record) | 1 | -0.56 | -0.85 | -0.22 | -0.6 | inactive
TBL3 | 1 | 0.05 | 0.06 | 0.12 | -0.02 | inactive
PHKA1 | 1 | -1.08 | -0.9 | -1.31 | -1.04 | inactive
C1orf105 | 1 | -0.1 | 0.15 | -0.26 | -0.2 | inactive
